Anti-infective test results gathered from many reports (values: NIAID ChemDB through PubChem).

Shared fields: whole-cell or culture tests; agent: Mycobacterium tuberculosis

Two numbers with a dash give a range or band. "inactive" is the filed call at that dose; no cut-off is given. A number after MIC or MFC names an inhibition level or a share of isolates. ECn is the concentration giving n% inhibition of infection, replication or growth. An empty or dashed field is not shown. Rows are shuffled and stem from different studies. MIC bound: limit read from a one-dose screen. Inhibition is in % at the dose shown (toxicity tests: loss of growth or viability).

smiles,read by,tested at,strain or isolate,cell line,endpoint,result
CC(=O)OC1CC(c2cccc(Br)c2)N(c2ccccc2)O1,-,6.25 µg/mL,H37Rv,-,inhibition,91%
Cc1cc2c(cc1C)[n+](=O)c(C(=O)N1CCN(c3ccccc3)CC1)c(C)n2[O-],-,-,H37Rv,-,MIC,>6.25 µg/mL
Cc1onc(-c2ccccc2Cl)c1C(=O)NC(=S)NC1CC(C)CC(C)(C)C1,resazurin,-,H37Rv,-,MIC bound,>6.25 µg/mL
N#C/C(=C\c1cccc(I)c1)n1nnc2ccccc21,-,-,ATCC 27294,-,MIC90,90.9 µM
O=C(CCN1C(=O)/C(=C/c2ccc(Cl)cc2)SC1=S)NNC(=O)c1cccnc1,-,-,H37Rv,-,MIC,7.01 µM
CC(=O)c1c(CN2CCN(c3ccccc3C)CC2)n([O-])c2ccccc2[n+]1=O,BACTEC,-,H37Rv,-,EC50,>6.25 µg/mL
N#C/C(=C\c1cccc(Cl)c1Cl)n1nnc2ccccc21,-,-,ATCC 27294,-,MIC90,>100 µM
COc1ccc2c(c1)C[C@]1(C)[C@@H](C)CCC3C(C)(C)CCC[C@]31O2,-,-,H37Rv,-,EC50,<6.25 µg/mL
O=C(CCN1C(=O)/C(=C/c2ccc3c(c2)OCO3)SC1=S)NNC(=O)c1cccc2ccccc12,-,-,H37Rv,-,MIC,24.75 µM
Cc1c(C(=O)NC(C)(C)C)[n+](=O)c2cc(Cl)c(Cl)cc2n1[O-],-,6.25 µg/mL,H37Rv,VERO,inhibition,100%
O=C(Cc1ccccc1)N/N=C(\c1nc2ccc([N+](=O)[O-])cc2[nH]c1=O)C(O)c1ccco1,resazurin,-,H37Rv,-,MIC bound,>6.25 µg/mL
O=C(CCN1C(=O)/C(=C/c2ccc3c(c2)OCO3)SC1=S)NNC(=O)c1ccncc1,-,-,H37Rv,-,MIC,54.82 µM
CC[C@H]1OC(=O)[C@H](C)[C@@H](O[C@H]2C[C@@](C)(OC)[C@@H](O)[C@H](C)O2)[C@H](C)[C@@H](O[C@@H]2O[C@H](C)C[C@H](N(C)C)[C@H]2O)[C@](C)(OC)C[C@@H](C)C(=O)[C@H](C)[C@@H](O)[C@]1(C)O,-,-,90-0240 (drug-susceptible),-,MIC,10 µg/mL
O=C(N=Nc1c(O)n(Cc2ccccc2)c2ccccc12)c1ccncc1,-,-,Human resistant isolate,-,MIC,3.5 µg/mL
C[C@H]1COC2(CCN(c3nc(=O)c4cc(C(F)(F)F)cc(N)c4s3)CC2)O1,resazurin,-,H37Rv,-,MIC,>1 µM
N#Cc1c(C(=O)NN)cc(-c2cccc3ccccc23)[nH]c1=O,resazurin,6.25 µg/mL,H37Rv,-,inhibition,-6%
COC(=O)c1ccc(O)cc1,agar,-,H37Rv,-,MIC,>350 µM
O=C(NCCOc1ccccc1F)c1cc([N+](=O)[O-])cc(C(F)(F)F)c1,resazurin,-,H37Rv,-,MIC90,1 µg/mL
CCOC(=O)c1c(-c2ccc(-c3noc(C)c3C(=O)OCC)cc2)noc1C,resazurin,-,H37Rv,-,MIC bound,>6.25 µg/mL
CC(=O)OC1CC(c2ccc([N+](=O)[O-])cc2)N(c2ccccc2)O1,-,6.25 µg/mL,H37Rv,-,inhibition,99%
NC(=O)c1n[nH]c(=S)[nH]c1=O,BACTEC,12.5 µg/mL,H37Rv,-,inhibition,0%
CCCCCCCCCCCCCCCCCC(=O)O,agar,-,H37Rv,-,MIC,>350 µM
O=S(=O)(Nc1cc(Cl)c(Cl)cc1N=Cc1cc(Cl)ccc1O)c1ccccc1,BACTEC,6.25 µg/mL,H37Rv,-,inhibition,8%
N#C/C(=C\c1ccc(F)c(F)c1)n1nnc2ccccc21,-,-,ATCC 27294,-,MIC50,54.6 µM
N/C(=N/N=C/c1ccccc1Br)c1ccccn1,-,-,1454 (THC-resistant),-,MIC,16 µg/mL
Nc1ccc2cc(-c3ccccc3)c(N3CCCCC3)nc2n1,-,6.25 µg/mL,H37Rv,-,inhibition,59%
COc1ccc2c(c1)[n+](=O)c(C(=O)c1ccccc1)c(C)n2[O-],BACTEC,6.25 µg/mL,H37Rv,-,inhibition,32%
COc1ccc(N2CCN(C(=O)c3c(C)n([O-])c4ccccc4[n+]3=O)CC2)cc1,-,-,H37Rv,-,MIC,>6.25 µg/mL
CC(=O)NC[C@H]1CN(c2ccc(N3CCS(=O)(=O)CC3)c(F)c2)C(=O)O1,-,-,91-2225,-,MIC,0.5 µg/mL
NNC(=O)c1ccncc1,-,-,T13704,-,MIC,25 µM
N/C(=N/N=C/c1ccccc1)c1ccccn1,-,-,1062 (THC-resistant),-,MIC,64 µg/mL
Clc1ccc(C(Cn2ccnc2)OCc2cccc3ccccc23)c(Cl)c1,-,-,CIP103471,-,MIC,1 µg/mL
CC(C)Sc1nc2c(=O)[nH][nH]c(=O)c2n1Cc1ccccc1,BACTEC,-,H37Rv,-,MIC bound,>12.5 µg/mL
Cc1ccc(/C=N/N=C(/N)c2ccccn2)cc1,-,-,1062 (THC-resistant),-,MIC,32 µg/mL
Cc1cn([C@H]2C[C@H](CN)[C@@H](CO)O2)c(=O)[nH]c1=O,-,-,H37Rv,-,MIC,>6.25 µg/mL
CC(C)CCOc1ccc(NC(=S)Nc2ccc(OCCC(C)C)cc2)cc1,-,-,Isolates ethionamide/thioacetazone-resistant,-,MIC,0.5–10 µg/mL
CCCCCN(C)Cc1cc(C(=O)OCC)ccc1N(CC(OC)OC)C(=O)c1cc2cc(F)cc([N+](=O)[O-])c2[nH]1,resazurin,-,H37Rv,-,MIC,8 µg/mL
N/C(=N/N=C/c1cccc(Br)c1)c1ccccn1,-,-,H37Rv,-,MIC,64 µg/mL
O=C(SCC1CS1)c1ccco1,-,-,H37Rv,-,MIC,0.8 µg/mL
c1ccc(-c2cc(N3CCCCC3)nc3nc(N4CCCCC4)ccc23)cc1,-,6.25 µg/mL,H37Rv,VERO,inhibition,99%
C/C=C(\C)c1cc(=O)c2c(C)cc3c(c2o1)C(=O)c1c(O)c([C@H]2C[C@](C)(N(C)C)[C@H](OC(C)=O)[C@H](C)O2)cc([C@H]2C[C@@H](N(C)C)[C@H](OC(C)=O)[C@@H](C)O2)c1C3=O,BACTEC,-,H37Rv,-,MIC,≥12.5 µg/mL
N#C/C(=C\c1ccccc1C(F)(F)F)n1nnc2ccccc21,-,-,ATCC 27294,-,MIC50,22.4 µM
CNCCOc1ccc(C(c2ccc(OC)cc2)c2cccnc2)cc1,-,-,H37Rv,-,MIC,>25 µg/mL
CC(=O)OCC1CC(c2ccccc2)N(c2ccccc2)O1,-,6.25 µg/mL,H37Rv,-,inhibition,inactive
CC(=O)c1c(C)n([O-])c2ccc(C)cc2[n+]1=O,BACTEC,-,H37Rv,VERO,EC50,<6.25 µg/mL
CC[CH2][Sn]([Br])([Br])[CH2]CC.c1cnc2c(c1)ccc1cccnc12,BACTEC,-,H37Rv,-,MIC bound,≤12.5 µg/mL
CC(C)(C)c1ccc(COC(Cn2ccnc2)c2ccc(Cl)cc2Cl)cc1,-,-,CIP103471,-,MIC,1 µg/mL
CN[C@@H]1[C@H](O[C@H]2[C@H](O[C@H]3[C@H](O)[C@@H](O)[C@H](N=C(N)N)[C@@H](O)[C@@H]3N=C(N)N)O[C@@H](C)[C@]2(O)C=O)O[C@@H](CO)[C@H](O)[C@H]1O,-,-,K137,-,MIC,≥512 µg/mL
CC[C@@H](CO)NCCN[C@@H](CC)CO,-,-,H37Rv,-,MIC,7.64 µM
COc1ccc(/C=N/NC(=O)CN(CC(=O)N/N=C/c2ccc(OC)cc2)N=O)cc1,BACTEC,-,H37Rv,-,MIC,≥12.5 µg/mL
CCN1CCN(c2ccc3c(-c4ccccc4)cc(N4CCN(CC)CC4)nc3n2)CC1,-,-,H37Rv,-,MIC,>6.25 µg/mL
Cc1c(C(=O)c2ccccc2)[n+](=O)c2cc(Cl)ccc2n1[O-],BACTEC,-,H37Rv,VERO,MIC,3.13 µg/mL
COc1ccc(C2CC(COC(C)=O)ON2c2ccccc2)cc1,-,6.25 µg/mL,H37Rv,-,inhibition,inactive
Clc1ccc(C(Cn2ccnc2)OCc2cccc3ccccc23)cc1,-,-,CIP103471,-,MIC,4 µg/mL
O=c1ccc2c(-c3ccccc3)cc(N3CCOCC3)nc2[nH]1,-,6.25 µg/mL,H37Rv,-,inhibition,0%
Cc1c2cnccc2c(C)c2c1c1ccccc1n2CCCCCC#N,resazurin,6.25 µg/mL,H37Rv,-,inhibition,99%
Clc1ccc2c(-c3ccccc3)cc(N3CCOCC3)nc2n1,-,6.25 µg/mL,H37Rv,-,inhibition,36%
CC[C@H](CC[C@@H](C)[C@H]1CC[C@H]2[C@@H]3CC=C4C[C@@H](O)CC[C@]4(C)[C@H]3CC[C@]12C)C(C)C,agar,-,H37Rv,-,MIC,>350 µM
C[C@H]1COC2(CCN(c3nc(=O)c4cc(C(F)(F)F)ccc4s3)CC2)O1,resazurin,-,H37Rv,-,MIC,>1 µM
c1ccc2c(c1)sc1nc3ccncc3nc12,resazurin,6.25 µg/mL,H37Rv,-,inhibition,33%
NC[C@H]1O[C@H](O[C@H]2[C@H](O)[C@@H](O[C@H]3O[C@H](CO)[C@@H](O)[C@H](N)[C@H]3O)[C@H](N)C[C@@H]2N)[C@H](O)[C@@H](O)[C@@H]1O,BACTEC,1 µg/mL,72 strains,-,inhibition,39%
N#C/C(=C\c1c(Cl)cccc1Cl)n1nnc2ccccc21,-,-,ATCC 27294,-,MIC50,6 µM
Cc1c(C(=O)N2CCN(c3ccc(Cl)cc3)CC2)[n+](=O)c2ccccc2n1[O-],-,6.25 µg/mL,H37Rv,-,inhibition,0%
CC(=O)c1c(CN2CCN(c3ccc(Cl)cc3)CC2)n([O-])c2cc(C)c(C)cc2[n+]1=O,BACTEC,-,H37Rv,-,EC50,>6.25 µg/mL
CC(=O)OCC1CC(c2ccc([N+](=O)[O-])cc2)N(c2ccccc2)O1,-,6.25 µg/mL,H37Rv,-,inhibition,inactive
O=C(O)c1cnccn1,-,-,H37Rv,-,MIC,480 µg/mL
N#C/C(=C/c1ccccc1Br)n1nnc2ccccc21,-,-,ATCC 27294,-,MIC90,33.1 µM
CC1=C(N)C(=O)C2=C(C1=O)N1C[C@H]3[C@H](N3C)[C@]1(O)[C@@H]2COC(N)=O,BACTEC,12.8 µg/mL,H37Rv,-,inhibition,98%
CC(=O)c1c(C)n([O-])c2cc(C)c(C)cc2[n+]1=O,BACTEC,6.25 µg/mL,H37Rv,VERO,inhibition,100%
Nc1ccc2nc3cc(Nc4ccccc4)c(=Nc4ccccc4)cc-3n(-c3ccccc3)c2c1,-,-,KM-R,-,MIC,0.2 µg/mL
COc1ccc2c(-c3ccccc3)cc(N3CCN(c4ccccc4)CC3)nc2n1,-,6.25 µg/mL,H37Rv,-,inhibition,86%
CC1=NN(c2nc(N)nc(C/C(N)=N/O)n2)C(C)(C)C1,resazurin,-,H37Rv,-,MIC bound,>6.25 µg/mL
CC(C)N(O)C(=O)C(=O)O,-,-,P4145,-,MIC,125 µM
C(=C\c1ccccc1)/COC(Cn1ccnc1)c1ccccc1,-,-,CIP103471,-,MIC,4 µg/mL
Cc1ccc(/C=N/N=C(/N)c2ccccn2)c(C)c1,-,-,1814 (THC-resistant),-,MIC,16 µg/mL
O=C1C(=O)c2cccnc2C(O)=C1CCCC1CCCCC1,resazurin,6.25 µg/mL,H37Rv,-,inhibition,24%
O=C(N=Nc1c(O)[nH]c2ccccc12)c1ccncc1,-,-,Human sensitive isolate,-,MIC,2.7 µg/mL
O=C(NN1C(=O)CS(=O)(=O)C1c1ccc(C(F)(F)F)cc1)c1ccncc1,-,-,H37Rv,VERO,MIC,≤0.03 µg/mL
COc1cc(OC)nc(NC(=O)NS(=O)(=O)c2ncccc2C(=O)N(C)C)n1,-,-,ATCC35801,-,MIC,125 µM
Nc1cc2cc(-c3ccccc3)c(N3CCCCC3)nc2nc1N1CCCCC1,-,-,H37Rv,-,MIC,>6.25 µg/mL
Cc1nc(C)c(C(=O)Nc2cccc3c2C(=O)NC3=O)cc1C(=O)Nc1cccc2c1C(=O)NC2=O,BACTEC,12.5 µg/mL,H37Rv,-,inhibition,4%
O=C(NCCOc1cccc(F)c1)c1cc([N+](=O)[O-])cc(C(F)(F)F)c1,resazurin,-,H37Rv,-,MIC90,1 µg/mL
CC(=O)OC12C=CC(=O)N1c1ccccc1C(=O)O2,resazurin,-,H37Rv,-,MIC bound,>6.25 µg/mL
N/C(=N/N=C/c1ccc(Br)cc1)c1ccccn1,-,-,1454 (THC-resistant),-,MIC,32 µg/mL
Cc1ccc(NC(=O)c2cc(S(=O)(=O)Nc3n[nH]c(=O)n3-c3ccccc3)c(S)cc2Cl)cc1,resazurin,-,H37Rv,-,MIC bound,>6.25 µg/mL
CCN1CCN(c2cc(-c3ccccc3)c3ccc(OC)nc3n2)CC1,-,-,H37Rv,-,MIC,>6.25 µg/mL

A second listing of 10 rows from above:

smiles	read by	tested at	strain or isolate	cell line	endpoint	result
COc1ccc(N2CCN(C(=O)c3c(C)n([O-])c4ccccc4[n+]3=O)CC2)cc1	-	-	H37Rv	-	MIC	>6.25 µg/mL
O=C1C(=O)c2cccnc2C(O)=C1CCCC1CCCCC1	resazurin	6.25 µg/mL	H37Rv	-	inhibition	24%
COc1ccc2c(c1)C[C@]1(C)[C@@H](C)CCC3C(C)(C)CCC[C@]31O2	-	-	H37Rv	-	EC50	<6.25 µg/mL
CC(=O)OC12C=CC(=O)N1c1ccccc1C(=O)O2	resazurin	-	H37Rv	-	MIC bound	>6.25 µg/mL
O=C(N=Nc1c(O)[nH]c2ccccc12)c1ccncc1	-	-	Human sensitive isolate	-	MIC	2.7 µg/mL
CC1=C(N)C(=O)C2=C(C1=O)N1C[C@H]3[C@H](N3C)[C@]1(O)[C@@H]2COC(N)=O	BACTEC	12.8 µg/mL	H37Rv	-	inhibition	98%
CCN1CCN(c2ccc3c(-c4ccccc4)cc(N4CCN(CC)CC4)nc3n2)CC1	-	-	H37Rv	-	MIC	>6.25 µg/mL
CC(=O)OCC1CC(c2ccccc2)N(c2ccccc2)O1	-	6.25 µg/mL	H37Rv	-	inhibition	inactive
COc1ccc2c(-c3ccccc3)cc(N3CCN(c4ccccc4)CC3)nc2n1	-	6.25 µg/mL	H37Rv	-	inhibition	86%
COc1ccc(/C=N/NC(=O)CN(CC(=O)N/N=C/c2ccc(OC)cc2)N=O)cc1	BACTEC	-	H37Rv	-	MIC	≥12.5 µg/mL